Results on 1 molecule are retold here after patent US4923895A, “Method of treatment of human immunodeficiency virus” (dated 1990).

The conditions of data set [1]: historic use against syphilis; phlebitis, transitory nausea, vomiting, lacrimation, pruritis, mild dermatitis; cited from earlier work.
The target in data set [2] is HIV reverse transcriptase (HIV-1 M:B_HXB2R, UniProt P04585). In words: In vitro HIV reverse transcriptase activity. The following applies: 0.006 to 60 microgram per ml.
Data set [3] deals with persistently infected H9 cells. Put plainly: Cytotoxicity in persistently infected H9 cells.
The subject of another data set is HIV DNA synthesis. Put plainly: HIV DNA synthesis in seropositive patient's lymphocytes cocultured with PHA-stimulated normal lymphocytes. Particulars: 0.6 microgram per ml and 6.0 microgram per ml.
For data set [4], the system named is HIV. In words: In vitro HIV infection of PHA-stimulated normal peripheral blood lymphocytes or H9 cells, p24 antigen capture test.
Data set [5] has as its system PHA stimulated peripheral blood lymphocytes and H9 cells. Put plainly: Cytotoxic effect on PHA stimulated peripheral blood lymphocytes and H9 cells ((3H) thymidine uptake, viable cell numbers).
In data set [6] the test system is HIV. In words: HIV production from lymphocytes of HIV seropositive patients cocultured with PHA stimulated PBL, p24 antigen capture assay.
In data set [7] the test system is HIV. Put plainly: HIV production in H9 cells persistently infected with HIV (antigen capture, reverse transcriptase activity, in vitro infectivity). Particulars: 6.0 and 0.6 microgram per ml.
Where [8] appears, read: 12 days incubation, PBL or H9 cells.
Where [9] appears, read: PHA stimulated peripheral blood lymphocytes and H9 cells.
Where [10] appears, read: within 4-7 days following addition of drug.

On to `Nc1cc([As]=O)ccc1O` (stereo not shown), for which the “side effects in patients” value in data set [1] was “generally tolerable side effects”. The “direct inhibitory effect on in vitro HIV reverse transcriptase activity” value in data set [2] is given as “did not have direct inhibitory effects”. Further, the cytotoxic effect result in data set [3] (60 milligrams per ml (so in the source)) is “the cells were destroyed”. Also, in data set [3] (persistently infected H9 cells, 1.2 microgram per ml), the cytotoxic effect result was “no cytotoxic effect”. Moreover, in data set [3] (persistently infected H9 cells, 6 microgram per ml), the “cytotoxic effect (cell growth)” value is “only mild inhibition of cell growth”. The “effect on the synthesis of HIV DNA” value in the data set with HIV DNA synthesis is “significant inhibitory effect”. For the same molecule, the “inhibition of in vitro HIV infection (p24 in culture supernatant)” value with HIV [4] (0.004 to 6 microgram per ml, 12 days) is reported as “inhibited in vitro HIV infection in a dose dependent manner”. Moreover, in the data set with HIV [4] (setting [8]), the “concentration at which inhibition of HIV infection was detectable (p24)” value is reported as 0.035-0.07 microgram per ml and the “concentration giving complete inhibition of HIV production (p24)” value is reported as at least 0.15 microgram per ml. Moreover, in data set [5] (60 microgram per ml), the cytotoxic effect entry was “highly toxic for cells”. Moreover, in data set [5] (setting [9]), the “concentration with low levels of cytotoxic effect” value was 1.2-6 microgram per ml and the “concentration with no cytopathic effect ((3H) thymidine uptake or viable cell numbers)” value is reported as at most 0.6 microgram per ml. Moreover, the “concentration with no toxicity” value in data set [5] (peripheral blood lymphocytes and H9 cells, summary statement) is reported as at most 0.6 microgram per ml. In addition, the “toxicity at the range of concentrations at which HIV is inhibited” value in data set [5] (range of concentrations at which HIV is inhibited) is reported as “not toxic”. Also, the “inhibition of HIV production from lymphocytes of both patients” value in the data set with HIV [6] (coculture with PHA stimulated PBL) is “in a dose dependent manner”. For the same molecule, the “concentration that completely blocked virus production (HIV p24 antigen capture assay)” value in the data set on HIV [6] (lymphocytes from an AIDS patient and a seropositive asymptomatic individual cocultured with PHA stimulated PBL) is listed as at least 0.6 microgram per ml. Also, in the data set on HIV [7] (HIV-infected H9 cells), the “amount of HIV in the culture fluid (HIV p24) compared to untreated control” value was “greatly reduced”. Besides, in the data set with HIV [7] (setting [10]), the “infectious HIV in culture fluids (in vitro infectivity assay in PHA-stimulated PBL)” value is recorded as “no significant levels” and the “reverse transcriptase activity in culture fluids” value is recorded as “no significant levels”.
